Construct, isoform or probe ends are uncertain for at least one entry.

Protein sequences, listed by entry. Tags and fused reporters are not part of them. Lines headed by an entry give the natural chain unless they say otherwise; changes in a name come on top.
UniProt Q9KJN4: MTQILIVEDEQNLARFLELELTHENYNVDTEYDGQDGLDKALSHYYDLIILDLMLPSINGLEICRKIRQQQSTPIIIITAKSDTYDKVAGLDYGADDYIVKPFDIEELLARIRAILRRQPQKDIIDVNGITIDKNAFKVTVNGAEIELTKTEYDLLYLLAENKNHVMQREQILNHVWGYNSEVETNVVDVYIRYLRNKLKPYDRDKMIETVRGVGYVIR

1 sequence from paper PMC6455253 can be followed below.

For the data set, the target named is rArlR (phosphorylated with acetylphosphate) (Staphylococcus aureus USA300 TCH1516) (UniProt Q9KJN4). In words: EMSA. The following applies: 0.5-2 ug rArlR, 0.4 ng DNA, DIG Gel Shift Kit (Roche) per manufacturer, 25 C, 30 min, 6% non-denaturing PAGE, salt and pH not stated, recombinant protein, protein details: His (pET-28a, XbaI/XhoI), label: digoxigenin (DIG-ddUTP), probe letters rebuilt from the primers and the genome. (A gel shift assay detects complexes by their altered migration in electrophoresis.)

For the sequence “TAATTATCATTATAACAGTATTTCTTAAAAATGTAAGATGTGTTAGAATATACGTATAACTTACTACTAACAAAGGGATTAATAATCTTTTTTATAAGTGTAGAAACTTATCTGAAAAATTAGGTTTTTCTCATTTAATTTTAATG (double strand) [Pspx 146 bp]”, the binding result was “binds”.
